Results of unrelated studies side by side (data: NIAID ChemDB).

Common to all: tests in culture; organism: Candida albicans

A number after MIC or MFC names an inhibition level or a share of isolates.

{"smiles": "CCC(c1ccc(Cl)cc1)C(c1ccc(OC)cc1)n1cncn1", "strain or isolate": "28 strains", "read-out": "EC50", "result": "<256 µg/mL"}
{"smiles": "CCCCCCCCOC[n+]1cccc(NCn2cnc3ccccc32)c1", "strain or isolate": "ATCC 10231", "read-out": "MBC", "result": "1242 µM"}
{"smiles": "O=C(NCc1ccc(Cl)c(Cl)c1)c1ccccc1O", "strain or isolate": "ATCC 44859", "read-out": "Geometric mean MIC", "result": "420.5 µM"}
{"smiles": "O=c1cc(CO)occ1O", "strain or isolate": "CAN276", "read-out": "MIC99", "result": ">12800 µM"}
{"smiles": "CCCCCCCCCCCC[N+](C)(C)COC1CCCCC1", "strain or isolate": "ATCC 10231", "read-out": "MBC", "result": "138 µM"}
{"smiles": "NCCCC[C@H](NC(=O)[C@H](Cc1c[nH]c2ccccc12)NC(=O)[C@H](CCCCN)NC(=O)[C@@H](N)CCCCN)C(=O)O", "strain or isolate": "ATCC 10231", "read-out": "inhibition", "dose": "200 µM", "result": "9%"}
{"smiles": "CCC(C)n1ncn(-c2ccc(N3CCN(c4ccc(OC[C@H]5CO[C@](Cn6cncn6)(c6ccc(Cl)cc6Cl)O5)cc4)CC3)cc2)c1=O", "strain or isolate": "MTCC 227", "read-out": "MIC99", "result": "100 µg/mL"}
{"smiles": "Cc1ccc(-c2c3c(N)c4c(nc3nc3c2c(C)nn3-c2ccccc2)CCCCC4)cc1", "strain or isolate": "CCC 126", "method": "broth dilution / absorbance", "read-out": "MIC50", "result": "62.5 µg/mL"}
{"smiles": "CCCCCCOC[n+]1cccc(NCn2nnc3ccccc32)c1", "strain or isolate": "ATCC 10231", "read-out": "MBC", "result": ">1332 µM"}
{"smiles": "Cc1ccc(-c2c3c(N)c4c(nc3nc3c2c(C)nn3-c2ccccc2)CCCC4)cc1", "strain or isolate": "ATCC 10231", "method": "broth dilution / absorbance", "read-out": "MIC80", "result": "31.2 µg/mL"}
{"smiles": "Nc1[nH]c(=O)ncc1F", "strain or isolate": "50 isolates", "read-out": "MIC90", "result": "0.64 µg/mL"}
{"smiles": "CCCCCCCCCCCC[N+](C)(C)COCCCCC", "strain or isolate": "ATCC 10231", "read-out": "MBC", "result": "28.6 µM"}
{"smiles": "C[C@H]1[C@H](O)[C@@H](C)/C=C/C=C/C=C/C=C/C=C/C=C/C=C/[C@H](O[C@@H]2O[C@H](C)[C@@H](O)[C@H](N)[C@@H]2O)C[C@@H]2O[C@](O)(C[C@@H](O)C[C@@H](O)CC[C@H](O)[C@@H](O)C[C@@H](O)CC(=O)O[C@H]1C)C[C@H](O)[C@H]2C(=O)O", "strain or isolate": "ATCC 90028", "method": "broth dilution / absorbance", "read-out": "MIC99", "result": "0.78 µM"}
{"smiles": "O=C(NCc1ccc(F)cc1)c1ccccc1O", "strain or isolate": "ATCC 44859", "read-out": "Geometric mean MIC", "result": "454.6 µM"}
{"smiles": "CC(O)C1NC(=O)C(CCc2ccc(O)cc2)NC(=O)C2C[C@@H](O)CN2C(=O)C(C(C)O)NC(=O)[C@@H](NC(=O)c2ccc(N(C)C)cc2)CCCNC(=O)C2C[C@H](N)CN2C1=O", "strain or isolate": "ATCC 62376", "read-out": "MIC", "result": ">100 µg/mL"}
{"smiles": "N/C(=N/N=C1CCCCCC1)SCc1cccc(Cl)c1", "read-out": "MFC", "result": ">200 µg/mL"}
{"smiles": "CCCCCCCCCOC[n+]1cccc(NCn2cnc3ccccc32)c1", "strain or isolate": "ATCC 10231", "read-out": "MBC", "result": "1200 µM"}
{"smiles": "Cc1c(S(=O)(=O)c2ccccc2)[n+](=O)c2ccccc2n1[O-]", "strain or isolate": "Clinical isolate 14", "read-out": "MIC", "result": "15.6 µg/mL"}
{"smiles": "N/C(=N/N=C1CCCC1)SCc1ccccc1Cl", "read-out": "MFC", "result": ">200 µg/mL"}
{"smiles": "C[C@H]1[C@H](O)[C@@H](C)/C=C/C=C/C=C/C=C/C=C/C=C/C=C/[C@H](O[C@@H]2O[C@H](C)[C@@H](O)[C@H](N)[C@@H]2O)C[C@@H]2O[C@](O)(C[C@@H](O)C[C@@H](O)CC[C@H](O)[C@@H](O)C[C@@H](O)CC(=O)O[C@H]1C)C[C@H](O)[C@H]2C(=O)O", "strain or isolate": "green", "method": "broth dilution", "read-out": "EC50", "result": "1 µM"}
{"smiles": "C[C@H](CCC(=N)N)C1CC[C@@]2(C)C3=C(CCC12C)C1(C)CCC(O)C(C)(C)C1CC3.O=S(=O)(O)C(F)(F)F", "read-out": "MLC", "result": "12.5 µg/mL"}
{"smiles": "Clc1nssc1=Nc1cccc2ncccc12", "strain or isolate": "ATCC 10231", "read-out": "MFC99", "result": "32 µg/mL"}
{"smiles": "CC1=CC[C@@H]2[C@H](C1)C2(C)C", "strain or isolate": "ATCC 10231", "read-out": "MLC", "result": "0.32–0.64 µg/mL"}
{"smiles": "C[C@H]1[C@H](O)[C@@H](C)/C=C/C=C/C=C/C=C/C=C/C=C/C=C/[C@H](O[C@@H]2O[C@H](C)[C@@H](O)[C@H](N)[C@@H]2O)C[C@@H]2O[C@](O)(C[C@@H](O)C[C@@H](O)CC[C@H](O)[C@@H](O)C[C@@H](O)CC(=O)O[C@H]1C)C[C@H](O)[C@H]2C(=O)O", "strain or isolate": "ATCC 90028", "mutations": "cph1 (CPH1)", "method": "broth dilution", "read-out": "inhibition", "dose": "1 µg/mL", "result": "100%"}
{"smiles": "CCCCOC[N+](C)(C)Cc1cc(N=Nc2ccc(C)cc2)ccc1O", "read-out": "MBC", "result": "319 µM"}
{"smiles": "N/C(=N/N=C1CCCCCCC1)SCc1cccc(Cl)c1", "read-out": "MFC", "result": ">200 µg/mL"}
{"smiles": "CCCCCCCCCCCOC[n+]1cccc(NCn2nnc3ccccc32)c1", "strain or isolate": "ATCC 10231", "read-out": "MBC", "result": "561 µM"}
{"smiles": "CCCCCCCCCCCC[N+](C)(C)COC(CC)CCCCC", "strain or isolate": "ATCC 10231", "read-out": "MBC", "result": "12.8 µM"}
{"smiles": "Cc1nn(-c2ccccc2)c2nc3nc4c(c(N)c3c(-c3ccc(Cl)cc3)c12)CCCCC4", "strain or isolate": "ATCC 10231", "method": "broth dilution / absorbance", "read-out": "MIC80", "result": "125 µg/mL"}
{"smiles": "CCCCCCOC[N+](C)(C)Cc1cc(N=Nc2ccc(Cl)cc2)ccc1O", "read-out": "MBC", "result": "141 µM"}
{"smiles": "Cc1c(S(=O)(=O)c2ccccc2)[n+](=O)c2cc(Cl)ccc2n1[O-]", "strain or isolate": "Clinical isolate 7", "read-out": "MIC", "result": "31.25 µg/mL"}
{"smiles": "CCOC[N+](C)(C)Cc1cc(N=Nc2ccc(C)cc2)ccc1O", "read-out": "MBC", "result": "1376 µM"}
{"smiles": "OC(CN1CCN(c2ccc(OCc3ccncc3)cc2)CC1)(Cn1cncn1)c1ccc(F)cc1F", "strain or isolate": "304322", "read-out": "MIC80", "result": "0.5 µg/mL"}
{"smiles": "CCC(C(=O)c1ccc(OC)cc1)c1ccc(OC)cc1", "strain or isolate": "28 strains", "read-out": "inhibition", "dose": "256 µg/mL", "result": "0%"}
{"smiles": "N/C(=N/N=C1CCCCCC1)SCc1ccc(Cl)cc1Cl", "read-out": "MFC", "result": ">200 µg/mL"}
{"smiles": "COc1ccccc1N=c1ssnc1Cl", "strain or isolate": "ATCC 10231", "read-out": "MFC99", "result": "16 µg/mL"}
{"smiles": "CCCCCCCCCCCC[N+](C)(C)COCCCCCCCCCCC", "strain or isolate": "ATCC 10231", "read-out": "MBC", "result": "115 µM"}
{"smiles": "NC(=NC1CCCC1)c1ccc(-c2ccc(-c3ccc(C(N)=NC4CCCC4)cc3)o2)cc1", "strain or isolate": "Isolate 2281", "read-out": "MFC", "result": "50 µg/mL"}
{"smiles": "C=CCc1ccc(O)c(OC)c1", "strain or isolate": "2357", "method": "turbidity", "read-out": "MIC90", "result": "500 µg/mL"}
{"smiles": "CCC(C)n1ncn(-c2ccc(N3CCN(c4ccc(OC[C@H]5CO[C@](Cn6cncn6)(c6ccc(Cl)cc6Cl)O5)cc4)CC3)cc2)c1=O", "read-out": "Mean MIC80", "result": "3.81 µg/mL"}
{"smiles": "COc1ccc(C(C(Cc2ccc(Cl)cc2Cl)c2ccc(Cl)cc2)n2ccnc2)cc1", "strain or isolate": "28 strains", "read-out": "inhibition", "dose": "256 µg/mL", "result": "100%"}
{"smiles": "CC(O)C1NC(=O)C(CCc2ccc(O)cc2)NC(=O)C2C[C@@H](O)CN2C(=O)C(C(C)O)NC(=O)[C@@H](NC(=O)c2ccc(N3CCN(c4ccc(O)cc4)CC3)cc2)CCCNC(=O)C2C[C@H](N)CN2C1=O", "strain or isolate": "ATCC 62376", "read-out": "MIC", "result": "25 µg/mL"}
{"smiles": "CCC(C)n1ncn(-c2ccc(N3CCN(c4ccc(OC[C@H]5CO[C@](Cn6cncn6)(c6ccc(Cl)cc6Cl)O5)cc4)CC3)cc2)c1=O", "strain or isolate": "A28200", "read-out": "MFC99", "result": ">16 µg/mL"}
{"smiles": "COc1ccc(C(Cc2ccc(Cl)cc2)n2ccnc2)cc1", "strain or isolate": "28 strains", "read-out": "inhibition", "dose": "256 µg/mL", "result": "100%"}
{"smiles": "CCCCCCCCCCCC[N+](C)(C)COC1CCCCCCCCCCC1", "strain or isolate": "ATCC 10231", "read-out": "MBC", "result": "26.9 µM"}
{"smiles": "COc1ccc(CC(c2ccc(OC)cc2)n2ccnc2)cc1", "strain or isolate": "28 strains", "read-out": "EC50", "result": "<256 µg/mL"}
{"smiles": "O=[n+]1c(Sc2ccccc2)c(CBr)n([O-])c2ccccc21", "strain or isolate": "Clinical isolate 19", "read-out": "MIC", "result": "7.8 µg/mL"}
{"smiles": "Clc1nssc1=Nc1ccccc1", "strain or isolate": "ATCC 10231", "read-out": "MFC99", "result": "16 µg/mL"}
{"smiles": "C[N+](C)(COC1CCCCC1)Cc1cc(N=Nc2ccc(Cl)cc2)ccc1O", "read-out": "MBC", "result": "142 µM"}
{"smiles": "Oc1cccc2c(N=c3ssnc3Cl)cccc12", "strain or isolate": "ATCC 10231", "read-out": "MFC99", "result": "16 µg/mL"}
{"smiles": "CCCCCCCCCOC[N+](C)(C)CCCCCCCC", "strain or isolate": "ATCC 10231", "read-out": "MBC", "result": "286 µM"}
{"smiles": "C[C@H]1[C@H](O)[C@@H](C)/C=C/C=C/C=C/C=C/C=C/C=C/C=C/[C@H](O[C@@H]2O[C@H](C)[C@@H](O)[C@H](N)[C@@H]2O)C[C@@H]2O[C@](O)(C[C@@H](O)C[C@@H](O)CC[C@H](O)[C@@H](O)C[C@@H](O)CC(=O)O[C@H]1C)C[C@H](O)[C@H]2C(=O)O", "strain or isolate": "CCC 129", "method": "broth dilution / absorbance", "read-out": "MIC100", "result": "0.78 µg/mL"}
{"smiles": "C[C@H]1[C@H](O)[C@@H](C)/C=C/C=C/C=C/C=C/C=C/C=C/C=C/[C@H](O[C@@H]2O[C@H](C)[C@@H](O)[C@H](N)[C@@H]2O)C[C@@H]2O[C@](O)(C[C@@H](O)C[C@@H](O)CC[C@H](O)[C@@H](O)C[C@@H](O)CC(=O)O[C@H]1C)C[C@H](O)[C@H]2C(=O)O", "strain or isolate": "50 isolates", "read-out": "MIC90", "result": "0.2 µg/mL"}
{"smiles": "CCCCCOc1ccc(-c2ccc(-c3ccc(C(=O)N[C@H]4CCCNC(=O)C5C[C@H](N)CN5C(=O)C(CCCN(C)C)NC(=O)C(CCc5ccc(O)cc5)NC(=O)C5C[C@@H](O)CN5C(=O)C(C(C)O)NC4=O)cc3)cc2)cc1", "strain or isolate": "ATCC 10231", "read-out": "MIC", "result": "0.39 µg/mL"}

ECn: concentration that inhibits the pathogen or its effect by n%. Rows are shuffled and stem from different studies. Two numbers with a dash give a range or band. Percent inhibition refers to the dose given; in toxicity tests it is the harm to the cells.